Results on one substance are retold here after patent US6307080A, “Water-soluble zinc pyruvates or their hydrates, method for the product ion thereof and their use” (SKW Trostberg Aktiengesellschaft, priority 1998, dated 2001).

The subject of the data set is influenza A and B viruses / MDCK cells.

As to zinc pyruvate, the “in vitro selectivity ratio” value was “very high”. For the same substance, the therapeutic index (dog, mdck) was 2000.
